The values below come from the supplement of paper PMC3578754.

Fold change is the IC50 on the isolate divided by the IC50 on a reference virus; 1 = unchanged, higher = more resistant. Changes are given against the subtype B consensus. No active / inactive call. The values were gathered from many studies (numbered anew) with different assays, which the source does not name. Most viruses are clinical isolates; some are laboratory strains or clones with known resistance changes. Isolates with mixed residues are left out; stretches that were not sequenced show no change. Round top values that many isolates share are read here as limits; other very high values and 0.1 may be limits too. The protease changes I3V and N37S, insertions and deletions cannot be read from the source.

Compound in one assay: CC(C)(C)NC(=O)[C@@H]1C[C@@H]2CCCC[C@@H]2CN1C[C@@H](O)[C@H](Cc1ccccc1)NC(=O)[C@H](CC(N)=O)NC(=O)c1ccc2ccccc2n1 [saquinavir]
The assay is described as follows: fold change of IC50 against reference virus; higher = more resistant; Cell-culture drug susceptibility tests of virus bearing the protease of each isolate, gathered from many studies.

Compound in another assay: CC(C)(C)NC(=O)[C@@H]1CN(Cc2cccnc2)CCN1C[C@@H](O)C[C@@H](Cc1ccccc1)C(=O)N[C@H]1c2ccccc2C[C@H]1O [indinavir]
The assay is described as above.

Regarding “HIV-1 isolate 827 (protease changes: I84V L90M, study 71)”, in the assay with saquinavir, the “fold change of IC50 against reference virus” value (“fold change of IC50” below) was found to be 5.

As for “HIV-1 isolate 1553 (protease changes: N37C I62V L63P V77I I93L, study 90)”, the “fold change of IC50” value with indinavir turned out to be 0.8; in the assay with saquinavir it was 1.

Consider “HIV-1 isolate 273 (protease changes: T12Q I15V L19I M36I D60E L63P L90M, study 90)”, for which the figures for the “fold change of IC50” value with indinavir and in the assay with saquinavir were 1 and 1.7, respectively.

As to “HIV-1 isolate 345 (protease changes: I84V, study 71)”, in the assay with saquinavir, the “fold change of IC50” value is 1.

For “HIV-1 isolate 1339 (protease changes: L10I K14R R41K M46L I54V L63P A71V V82A L90M I93L, study 32)”, the “fold change of IC50” value with indinavir was found to be 14.

As for “HIV-1 isolate 241 (protease changes: V32I M46L A71V V82A, study 60)”, the “fold change of IC50” value with indinavir was 6; in the assay with saquinavir, 0.2.

Take “HIV-1 isolate 589 (protease changes: G48V L90M, study 60)”: the results for the “fold change of IC50” value with indinavir and in the assay with saquinavir were 2 and 36, respectively.

As to “HIV-1 isolate 725 (protease changes: G48V R57G, study 52)”, the “fold change of IC50” value in the assay with saquinavir came out at 10.

“HIV-1 isolate 326 (protease changes: L10I I13V R41K, study 19)”: the “fold change of IC50” value with saquinavir came to 1.

Take “HIV-1 isolate 1279 (protease changes: L10F I84V, study 60)”: the “fold change of IC50” value with indinavir worked out at 1; with saquinavir it was 3.

For the test system “HIV-1 isolate 349 (protease changes: I15V M36I R41K K45R I62V L63P A71T N88D L90M I93L, study 90)”, the “fold change of IC50” value was found to be 4.3 in the assay with indinavir and 3.7 in the assay with saquinavir.

Regarding “HIV-1 isolate 1413 (protease changes: L10F K45I I84V, study 60)”, the “fold change of IC50” value with indinavir and with saquinavir was 3 each time.

In the case of “HIV-1 isolate 1242 (protease changes: R41K Q58E L63P L90M, study 90)”, the “fold change of IC50” value with indinavir turned out to be 1; in the assay with saquinavir it was 1.1.

As for “HIV-1 isolate 574 (protease changes: M46L V82A, study 60)”, the results for the “fold change of IC50” value with indinavir and in the assay with saquinavir were 2 and 0.2, respectively.

Take “HIV-1 isolate 1559 (protease changes: I13V L63P, study 90)”: the “fold change of IC50” value stood at 0.9 with indinavir and 1 with saquinavir.

On to “HIV-1 isolate 53 (protease changes: L10F I84V, study 71)”, for which the “fold change of IC50” value in the assay with saquinavir worked out at 4.

On to “HIV-1 isolate 610 (protease changes: L90M, study 71)”, for which the “fold change of IC50” value in the assay with saquinavir turned out to be 3.

As to “HIV-1 isolate 48 (protease changes: I15V R57K L63P, study 90)”, the “fold change of IC50” value with indinavir was 0.7; with saquinavir it was 1.

In the case of “HIV-1 isolate 923 (protease changes: N37D L63T A71T V77I L90M I93L, study 90)”, the “fold change of IC50” value worked out at 0.6 in the assay with indinavir and 0.7 with saquinavir.

For “HIV-1 isolate 219 (protease changes: I13V D60E I64V, study 90)”, the “fold change of IC50” value with indinavir and with saquinavir was 1 throughout.

On to “HIV-1 isolate 979 (protease changes: none, study 71)”, for which the “fold change of IC50” value with saquinavir was 1.

Turning to “HIV-1 isolate 1101 (protease changes: L90M, study 73)”, in the assay with saquinavir, the “fold change of IC50” value turned out to be 3.

As to “HIV-1 isolate 709 (protease changes: G48V R57G A71V I84V L90M, study 52)”, in the assay with saquinavir, the “fold change of IC50” value stood at 120.

Take “HIV-1 isolate 415 (protease changes: G48V L90M, study 71)”: in the assay with saquinavir, the “fold change of IC50” value stood at 17.

Turning to “HIV-1 isolate 742 (protease changes: none, study 73)”, the “fold change of IC50” value with saquinavir was found to be 1.

In the case of “HIV-1 isolate 712 (protease changes: L10I I13V R41K A71T V82A, study 19)”, the “fold change of IC50” value with saquinavir was 2.

On to “HIV-1 isolate 1319 (protease changes: L10I M46L I54V L63P A71V V82A L90M, study 32)”, for which the “fold change of IC50” value in the assay with indinavir is 59.

As for “HIV-1 isolate 1552 (protease changes: none, study 37)”, the “fold change of IC50” value in the assay with indinavir and with saquinavir was 1 in each case.

For the test system “HIV-1 isolate 1046 (protease changes: K43R L63P A71V I93L, study 90)”, the “fold change of IC50” value amounted to 0.7 with indinavir and 1 in the assay with saquinavir.

For “HIV-1 isolate 1203 (protease changes: L10F I84V, study 37)”, the “fold change of IC50” value worked out at 4 with indinavir and 2 with saquinavir.

In the case of “HIV-1 isolate 1494 (protease changes: T12S I13V K14R G16E E35D N37A L63Q I64V, study 90)”, the “fold change of IC50” value with indinavir is 0.5; with saquinavir, 0.9.

With “HIV-1 isolate 802 (protease changes: L63P L90M, study 90)”, the “fold change of IC50” value in the assay with indinavir and with saquinavir was 1.5 throughout.

Consider “HIV-1 isolate 916 (protease changes: K14R N37E K43R L63T I64M A71V I72T I93L, study 90)”, for which the entries for the “fold change of IC50” value in the assay with indinavir and with saquinavir were 0.4 and 1, respectively.

Take “HIV-1 isolate 1487 (protease changes: L10I L19I D60E L63P I64V A71V I72T P79D I84V L90M I93L, study 90)”: the “fold change of IC50” value was 3.5 with indinavir and 5.3 with saquinavir.

Regarding “HIV-1 isolate 200 (protease changes: L10F M46I I47V I50V D60V, study 37)”, the results for the “fold change of IC50” value with indinavir and with saquinavir were 4 and 1, respectively.

On to “HIV-1 isolate 998 (protease changes: T12S K14R I15V L19I N37A R41K, study 90)”, for which the “fold change of IC50” value with indinavir came out at 0.3; with saquinavir, 1.

On to “HIV-1 isolate 464 (protease changes: V82A, study 71)”, for which the “fold change of IC50” value with saquinavir stood at 1.

Take “HIV-1 isolate 1125 (protease changes: L10F M46I I47V I50V, study 37)”: the “fold change of IC50” value is 3 in the assay with indinavir and 1 in the assay with saquinavir.

“HIV-1 isolate 1484 (protease changes: R8K M46I G48V, study 60)”: the “fold change of IC50” value with indinavir and with saquinavir was 1 throughout.

“HIV-1 isolate 1118 (protease changes: G48V R57G A71V I84V, study 52)”: in the assay with saquinavir, the “fold change of IC50” value came to 100.

In the case of “HIV-1 isolate 26 (protease changes: M46I I50V, study 60)”, the “fold change of IC50” value with indinavir turned out to be 0.5; with saquinavir, 0.4.

In the case of “HIV-1 isolate 85 (protease changes: G48V, study 73)”, the “fold change of IC50” value in the assay with saquinavir turned out to be 7.

For “HIV-1 isolate 1516 (protease changes: G48V L90M, study 73)”, the “fold change of IC50” value with saquinavir was 20.

As to “HIV-1 isolate 1087 (protease changes: R57G, study 52)”, in the assay with saquinavir, the “fold change of IC50” value is 1.

Take “HIV-1 isolate 879 (protease changes: M36I N37D L63P I93L, study 90)”: the “fold change of IC50” value in the assay with indinavir is 0.7; with saquinavir, 1.1.

Turning to “HIV-1 isolate 587 (protease changes: L10I I15V E35D N37E K45R I54V L63P A71V V82T L90M I93L C95F, study 32)”, the “fold change of IC50” value in the assay with indinavir is 31.

Consider “HIV-1 isolate 97 (protease changes: N37T L63P I64L V77I, study 90)”, for which the “fold change of IC50” value with indinavir and with saquinavir was 1 each time.

As for “HIV-1 isolate 1227 (protease changes: none, study 60)”, the “fold change of IC50” value with indinavir and in the assay with saquinavir was 1 throughout.

As to “HIV-1 isolate 1341 (protease changes: G48V A71V I84V L90M, study 60)”, the “fold change of IC50” value with indinavir stood at 4; with saquinavir it was 40.

Turning to “HIV-1 isolate 119 (protease changes: L10I L24I E35D M36I M46L I54V R57K I62V L63P A71V G73S V82A, study 32)”, the “fold change of IC50” value in the assay with indinavir is 59.

For “HIV-1 isolate 139 (protease changes: L10R N37D M46I I62V L63P A71V G73S V77I V82T L90M I93L, study 32)”, the “fold change of IC50” value in the assay with indinavir stood at 59.

Regarding “HIV-1 isolate 801 (protease changes: M46L I50V, study 60)”, the results for the “fold change of IC50” value with indinavir and with saquinavir were 0.3 and 0.2, respectively.
